# Assay results reported in ChEMBL document CHEMBL1132146, “Chemical stability and fate of the cytostatic drug ifosfamide and its N-dechloroethylated metabolites in acidic aqueous solutions” (J Med Chem, 1999).
# Tested on: Mus musculus
# Assay: acute toxicity against mouse after ip administration
# Type: organism-based
# Details: in vivo
# Procedure, shortened: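 Single iv or ip injection; two female SD rats or male CD2F1 mice per dose group. Lethality and clinical signs of toxicity observed for 28 days to give an approximate LD50. Animals kept specific-pathogen-free with pellet diet and acidified water (pH 3) ad libitum.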
structure (smiles),measurement,value
Cl.NCCCl,LD50,2200 mg/kg
